Experimental data taken from publication PMC10808981, “Synthesis and structure–activity relationships of aryl fluorosulfate-based inhibitors as novel antitubercular agents” (Bioorganic & Medicinal Chemistry Letters, 2024).
Like-named read-outs stand apart in the source and are kept apart here.

Tested on: Mtb H37Rv
Assay: MIC determination in Mtb H37Rv, Microdilution Alamar Blue Assay (MABA)
Type: cell-based, Mycobacterium tuberculosis

Compound	fold increase in anti-TB activity (H37Rv MIC) [fold]	fold increase in anti-TB activity (H37Rv MIC) (compared to initial lead 3a) [fold]
4-((2,6-difluoro-4-(1H-1,2,3-triazol-1-yl)benzyl)oxy)phenyl sulfurofluoridate [Compound 3 m]	3	
O=S(=O)(F)Oc1ccc(OCc2c(F)cc(-n3ccnn3)cc2F)cc1 [Compound 3 l, 4-((2,6-difluoro-4-(1H-1,2,3-triazol-1-yl)benzyl)oxy)phenyl sulfurofluoridate]	3	
O=S(=O)(F)Oc1ccc(OCc2ccc(-n3cncn3)cc2F)cc1 [Compound 3d, 4-((2-fluoro-4-(1H-1,2,4-triazol-1-yl)benzyl)oxy)phenyl sulfurofluoridate]		4
O=S(=O)(F)Oc1ccc(OCc2c(F)cc(-n3cncn3)cc2F)cc1 [Compound 3i, 4-((2,6-difluoro-4-(1H-1,2,4-triazol-1-yl)benzyl)oxy)phenyl sulfurofluoridate]		4
NC(=O)c1ncn(-c2cc(F)c(COc3ccc(OS(=O)(=O)F)cc3)c(F)c2)n1 [Compound 20 k, 4-((4-(3-carbamoyl-1H-1,2,4-triazol-1-yl)-2,6-difluorobenzyl)oxy)phenyl sulfurofluoridate]	4	
Cc1ncn(-c2cc(F)c(COc3ccc(OS(=O)(=O)F)cc3)c(F)c2)n1 [Compound 20a, 4-((2,6-difluoro-4-(3-methyl-1H-1,2,4-triazol-1-yl)benzyl)oxy)phenyl sulfurofluoridate]	2	
CS(=O)(=O)Nc1ncn(-c2cc(F)c(COc3ccc(OS(=O)(=O)F)cc3)c(F)c2)n1 [Compound 21b, 4-((2,6-difluoro-4-(3-(methylsulfonamido)-1H-1,2,4-triazol-1-yl)benzyl)oxy)phenyl sulfurofluoridate]		47
